Laboratory results reported in paper PMC7300195 (Frontiers in Immunology, 2020).

Key:
Test in all cases: BLI
Details in all cases: both partners purified
[1] = biological target: HeV G hexameric design (NiV hex G design transferred to HeV G) (Hendra virus, strain unnamed (entry: …, UniProt O89343))
[2] = biological target: HeV G native tetrameric stalk design (Hendra virus, strain unnamed (entry: …, UniProt O89343))
HeV G monomeric design = HeV G monomeric design (Hendra virus, strain unnamed (entry: …, UniProt O89343))

Measured: binding result

B1: m102.4 monoclonal antibody (HeV G-specific antibody), human IgG1/kappa (antibody, V domains shown)
VH: EVQVIQSGADVKKPGSSVKVSCKSSGGTFSKYAINWVRQAPGQGLEWMGGIIPILGIANYAQKFQGRVTITTDESTSTAYMELSSLRSEDTAVYYCARGWGREQLAPHPSQYYYYYYGMDVWGQGTTVTVSS
VL: EIVMTQSPGTLSLAPGERATLSCWASQSVRNNYLAWYQQKPGQAPRLVIYNGSTRATGIPDRFSGSGSGTDFTLTISRLDPEDFAVYYCQQYGNSRRVTFGGGTKVEIK
binds: [1] | [2] | HeV G monomeric design
